Where a SMILES comes first, the peptide text is derived from it. The star is where a group is joined. βGlcNAc = CC(=O)N[C@@H]1[C@@H](O)[C@H](O)[C@@H](CO)O[C@H]1*; Stearoyl = CCCCCCCCCCCCCCCCCC(=O)*; Palmitoyl = CCCCCCCCCCCCCCCC(=O)*; Myristoyl = CCCCCCCCCCCCCC(=O)*
Test system: human red blood cells (RBCs)
Assay: Hemolysis assay
Format: cell-based
Description: The hemolysis assay was conducted using a procedure described previously. For this purpose, fresh human red blood cells (RBCs) with EDTA anticoagulant were washed three times with phosphate-buffer saline (PBS) using centrifugation at 800× g for 10 min and resuspended in PBS. Then, the stock solution of RBCs was added to serial dilution of peptides on 96-well polystyrene plates to reach a final volume of 100 µL with 4% concentration of erythrocytes (v/v) over the concentration range of 1–512 µg/mL of the tested compounds. The control wells for the 0% and 100% hemolysis consisted of RBCs suspended in PBS and 1% of Triton X–100, respectively. Subsequently, the plates were incubated for 60 min at 37 °C and then centrifuged at 800× g for 10 min at 4 °C (Sorvall ST 16R Centrifuge, Thermo Scientific, Osterode am Harz, Germany). After centrifugation, the supernatant was carefully […] to new microtiter plates and the release of hemoglobin was monitored through absorbance measurements at 540 nm (Multiskan™ GO Microplate Spectrophotometer, Thermo Scientific). All experiments were conducted in triplicate.
The lipopeptides were tested against human erythrocytes in order to evaluate their hemolytic activity. Moreover, selectivity indexes (SI) were calculated by dividing the HC50 by MIC. […] In some cases, glycosylation led to suppressed toxicity, e.g., a comparison of C14 peptides analogs: 1–3 and 10–12. On the other hand, an increase in toxicity of C18 analogs (7–9 vs. 16–18) was found for glycosylated USCLs. For this reason, SI was calculated to provide a correlation between antimicrobial activity and toxicity. […] Among gUSCLs: 10 and 11 with C14 fatty acid and 16–18 should be highlighted owing to their high selectivity against E. fecium and C. glabrata.

Structure (SMILES)	Selectivity Index (SI), HC50/MIC (A. baumannii)	Selectivity Index (SI), HC50/MIC (C. glabrata)	Selectivity Index (SI), HC50/MIC (E. faecium)	Selectivity Index (SI), HC50/MIC (K. aerogenes)	Selectivity Index (SI), HC50/MIC (K. pneumoniae)	Selectivity Index (SI), HC50/MIC (P. aeruginosa)	Selectivity Index (SI), HC50/MIC (S. aureus)
CCCCCCCCCCCCCC(=O)N[C@@H](CCCNC(=N)N)C(=O)N[C@@H](CO)C(=O)N[C@@H](CCCNC(=N)N)C(N)=O [Peptide 2, C14-RSR-NH2] (Myristoyl-Arg-Ser-Arg-NH2)	2.92	5.83	23.33	0.36	0.36	2.92	23.33
CCCCCCCCCCCCCC(=O)N[C@@H](CCCNC(=N)N)C(=O)N[C@@H](CCCNC(=N)N)C(=O)N[C@@H](CO)C(N)=O [Peptide 3, C14-RRS-NH2] (Myristoyl-Arg-Arg-Ser-NH2)	3.55	7.09	28.38	0.44	0.44	3.55	14.19
CCCCCCCCCCCCCCCC(=O)N[C@@H](CO)C(=O)N[C@@H](CCCNC(=N)N)C(=O)N[C@@H](CCCNC(=N)N)C(N)=O [Peptide 4, C16-SRR-NH2] (Palmitoyl-Ser-Arg-Arg-NH2)	2.36	18.87	9.43	4.72	0.15	4.72	9.43
CCCCCCCCCCCCCCCC(=O)N[C@@H](CCCNC(=N)N)C(=O)N[C@@H](CO)C(=O)N[C@@H](CCCNC(=N)N)C(N)=O [Peptide 5, C16-RSR-NH2] (Palmitoyl-Arg-Ser-Arg-NH2)	2.57	10.28	10.28	2.57	1.28	1.28	10.28
CCCCCCCCCCCCCCCC(=O)N[C@@H](CCCNC(=N)N)C(=O)N[C@@H](CCCNC(=N)N)C(=O)N[C@@H](CO)C(N)=O [Peptide 6, C16-RRS-NH2] (Palmitoyl-Arg-Arg-Ser-NH2)	2.37	9.49	9.49	1.19	2.37	4.75	9.49
CCCCCCCCCCCCCCCCCC(=O)N[C@@H](CO)C(=O)N[C@@H](CCCNC(=N)N)C(=O)N[C@@H](CCCNC(=N)N)C(N)=O [Peptide 7, C18-SRR-NH2] (Stearoyl-Ser-Arg-Arg-NH2)	2.57	20.58	10.29	5.14	5.14	1.29	5.14
CCCCCCCCCCCCCCCCCC(=O)N[C@@H](CCCNC(=N)N)C(=O)N[C@@H](CO)C(=O)N[C@@H](CCCNC(=N)N)C(N)=O [Peptide 8, C18-RSR-NH2] (Stearoyl-Arg-Ser-Arg-NH2)	5.24	83.78	41.89	10.47	10.47	5.24	20.95
CCCCCCCCCCCCCCCCCC(=O)N[C@@H](CCCNC(=N)N)C(=O)N[C@@H](CCCNC(=N)N)C(=O)N[C@@H](CO)C(N)=O [Peptide 9, C18-RRS-NH2] (Stearoyl-Arg-Arg-Ser-NH2)	2.95	23.58	11.79	2.95	5.89	1.47	11.79
CCCCCCCCCCCCCC(=O)N[C@@H](CO[C@@H]1O[C@H](CO)[C@@H](O)[C@H](O)[C@H]1NC(C)=O)C(=O)N[C@@H](CCCNC(=N)N)C(=O)N[C@@H](CCCNC(=N)N)C(N)=O [Peptide 10, C14-S(GlcNAc)RR-NH2] (Myristoyl-Ser(βGlcNAc)-Arg-Arg-NH2)	–	>2.00	>16.00	–	–	>2.00	>8.00
CCCCCCCCCCCCCC(=O)N[C@@H](CCCNC(=N)N)C(=O)N[C@@H](CO[C@@H]1O[C@H](CO)[C@@H](O)[C@H](O)[C@H]1NC(C)=O)C(=O)N[C@@H](CCCNC(=N)N)C(N)=O [Peptide 11, C14-RS(GlcNAc)R-NH2] (Myristoyl-Arg-Ser(βGlcNAc)-Arg-NH2)	5.69	2.85	11.38	–	–	2.85	5.69
CCCCCCCCCCCCCC(=O)N[C@@H](CCCNC(=N)N)C(=O)N[C@@H](CCCNC(=N)N)C(=O)N[C@@H](CO[C@@H]1O[C@H](CO)[C@@H](O)[C@H](O)[C@H]1NC(C)=O)C(N)=O [Peptide 12, C14-RRS(GlcNAc)-NH2] (Myristoyl-Arg-Arg-Ser(βGlcNAc)-NH2)	5.40	2.70	21.61	–	–	1.35	10.80
CCCCCCCCCCCCCCCC(=O)N[C@@H](CO[C@@H]1O[C@H](CO)[C@@H](O)[C@H](O)[C@H]1NC(C)=O)C(=O)N[C@@H](CCCNC(=N)N)C(=O)N[C@@H](CCCNC(=N)N)C(N)=O [Peptide 13, C16-S(GlcNAc)RR-NH2] (Palmitoyl-Ser(βGlcNAc)-Arg-Arg-NH2)	2.98	2.98	5.96	0.19	0.37	2.98	5.96
CCCCCCCCCCCCCCCC(=O)N[C@@H](CCCNC(=N)N)C(=O)N[C@@H](CO[C@@H]1O[C@H](CO)[C@@H](O)[C@H](O)[C@H]1NC(C)=O)C(=O)N[C@@H](CCCNC(=N)N)C(N)=O [Peptide 14, C16-RS(GlcNAc)R-NH2] (Palmitoyl-Arg-Ser(βGlcNAc)-Arg-NH2)	2.29	4.58	4.58	1.15	0.57	2.29	4.58
CCCCCCCCCCCCCCCC(=O)N[C@@H](CCCNC(=N)N)C(=O)N[C@@H](CCCNC(=N)N)C(=O)N[C@@H](CO[C@@H]1O[C@H](CO)[C@@H](O)[C@H](O)[C@H]1NC(C)=O)C(N)=O [Peptide 15, C16-RRS(GlcNAc)-NH2] (Palmitoyl-Arg-Arg-Ser(βGlcNAc)-NH2)	3.48	6.97	13.93	0.44	0.44	1.74	6.97
CCCCCCCCCCCCCCCCCC(=O)N[C@@H](CO[C@@H]1O[C@H](CO)[C@@H](O)[C@H](O)[C@H]1NC(C)=O)C(=O)N[C@@H](CCCNC(=N)N)C(=O)N[C@@H](CCCNC(=N)N)C(N)=O [Peptide 16, C18-S(GlcNAc)RR-NH2] (Stearoyl-Ser(βGlcNAc)-Arg-Arg-NH2)	4.84	19.36	4.84	2.42	1.21	2.42	4.84
CCCCCCCCCCCCCCCCCC(=O)N[C@@H](CCCNC(=N)N)C(=O)N[C@@H](CO[C@@H]1O[C@H](CO)[C@@H](O)[C@H](O)[C@H]1NC(C)=O)C(=O)N[C@@H](CCCNC(=N)N)C(N)=O [Peptide 17, C18-RS(GlcNAc)R-NH2] (Stearoyl-Arg-Ser(βGlcNAc)-Arg-NH2)	2.83	11.31	5.66	1.41	2.83	1.41	2.83
CCCCCCCCCCCCCCCCCC(=O)N[C@@H](CCCNC(=N)N)C(=O)N[C@@H](CCCNC(=N)N)C(=O)N[C@@H](CO[C@@H]1O[C@H](CO)[C@@H](O)[C@H](O)[C@H]1NC(C)=O)C(N)=O [Peptide 18, C18-RRS(GlcNAc)-NH2] (Stearoyl-Arg-Arg-Ser(βGlcNAc)-NH2)	1.50	12.01	6.01	1.50	1.50	1.50	3.00

Source: PMC9855884, “Glycosylated Lipopeptides—Synthesis and Evaluation of Antimicrobial Activity and Cytotoxicity” (Biomolecules, 2023)
